A mixed list of measured activities; the numbers were collected in NIAID ChemDB.

Shared fields: whole-cell or culture tests; agent: Mycobacterium tuberculosis

Two numbers with a dash give a range or band. MIC bound comes from a single tested concentration. Neighbouring rows are from separate reports. Inhibition is in % at the dose shown (toxicity tests: loss of growth or viability). MIC50, MIC90 and the like: level of inhibition, or share of isolates inhibited. Blank or dashed fields: not listed here.

structure,strain,changes,cells,method,conditions,measure,dose,result
CCCCCCC/C=C\CCCCCCCC(=O)O,1896-HF INHr,,,resazurin,,MIC100,,>100 µg/mL
CC(=O)C1=C(C(=O)O)[NH+]([O-])C2C=CC=CC2[NH+]1[O-],H37Rv,,VERO,,,MIC,,3.13 µg/mL
COc1ccc(C(=S)Nc2ccc(Cl)c(Cl)c2)cc1,H37Rv,,,,,MIC,,31 µM
O=c1oc2c(ccc3c(O)cccc32)c2c1CCCC2,H37Rv,,,BACTEC,,MIC bound,,>12.5 µg/mL
CSc1ccc(C(=O)CCC(=O)NC[C@H]2CN(c3ccc(N4CCCC4)c(F)c3)C(=O)O2)cc1,10 clinical isolates resistant,,,,,MIC,,>16 µg/mL
C=C(NC[C@H]1CN(c2ccc(N3C4CCC3CSC4)c(F)c2)C(=O)O1)C1CC1,H37Rv,,,broth dilution / fluorescence,,MIC,,1 µg/mL
NNC(=O)c1ccncc1,RIF-R1,rpoB mutant rifampicin-resistant,,resazurin,,MIC,,0.056 µg/mL
Cc1nccnc1NN,H37Rv,,,BACTEC,,inhibition,12.5 µg/mL,16%
O=C1O[C@@H](Cn2nccn2)CN1c1ccc(N2CC3(COC3)C2)c(F)c1,H37Rv,,,broth dilution / fluorescence,,MIC,,>32 µg/mL
CC(C)Cc1ccc(C(=O)CCC(=O)NC[C@H]2CN(c3ccc(N4CCCCC4)c(F)c3)C(=O)O2)cc1,ATCC 27294,,,,,MIC,,>16 µg/mL
O=C(OCCOC(=O)c1cnccn1)c1cnccn1,,Pyrazinamide-resistant,,resazurin,pH 6.6,MIC90,,>365 µM
O=C(O)c1c2n(c3cc(N4CCSCC4)c([N+](=O)[O-])cc3c1=O)CS2,H37Rv,,,agar,,MIC,,4.12 µM
Cc1ccc(NC(=S)c2ccccc2)cc1,H37Rv,,,,,MIC,,375 µM
CC(=O)N[C@H]1[C@@H](O[C@@H]2O[C@H](C[C@@H](O)[C@H]3O[C@@H](n4ccc(=O)[nH]c4=O)[C@H](O)[C@@H]3O)[C@H](O)[C@H](O)[C@H]2NC(=O)/C=C/CC(C)C)O[C@H](CO)[C@@H](O)[C@@H]1O,TAC-R,,,,,MIC,,0.4 µg/mL
COc1ccc(/C(C)=N/NC(=O)c2ccncc2)cc1F,H37Rv,,,,,MIC,,>20 µg/mL
COc1cc(/C=N/NC(=O)Cc2nn(Cc3ccc(Br)cc3F)c(=O)c3ccccc23)ccc1O,Multidrug-resistant (MDR),,,,,MIC,,3.05 µM
CO/C(=N\N=C\c1ccc(Cl)cc1)c1ccncc1,16PI,,,,,MIC,,>20 µg/mL
O=C(Cc1nn(Cc2ccc(Br)cc2F)c(=O)c2ccccc12)N/N=C/c1cccc(Br)c1,Multidrug-resistant (MDR),,,,,MIC,,0.72 µM
CCOC(=O)/C(N=Nc1ccc(-c2n[nH]c(=S)n2-c2ccccc2)cc1)=C(\C)O,H37Rv,,,,,MIC,,>12.5 µg/mL
CCOC(=O)c1cnccn1,,Pyrazinamide-resistant,,resazurin,pH 6.6,MIC90,,>657 µM
CCn1c(-c2ccc(N=Nc3c(C)[nH]n(-c4ccccc4)c3=O)cc2)n[nH]c1=S,H37Rv,,,,,MIC,,>12.5 µg/mL
O=C(O)c1c[nH]c2c(ccc3[nH]cc(C(=O)O)c(=O)c32)c1=O,H37Rv,,,BACTEC,,MIC,,≥12.5 µg/mL
CCCCCCCCCC(=O)N[C@H]1[C@H](Oc2c3cc4cc2Oc2ccc(cc2Cl)[C@@H](O[C@@H]2O[C@H](CO)[C@@H](O)[C@H](O)[C@H]2NC(C)=O)[C@@H]2NC(=O)[C@H](NC(=O)[C@@H]4NC(=O)[C@H]4NC(=O)[C@@H](Cc5ccc(c(Cl)c5)O3)NC(=O)[C@H](N)c3ccc(O)c(c3)Oc3cc(O)cc4c3)c3ccc(O)c(c3)-c3c(O[C@H]4O[C@H](CO)[C@@H](O)[C@H](O)[C@@H]4O)cc(O)cc3[C@H](C(=O)O)NC2=O)O[C@H](CO)[C@@H](O)[C@@H]1O,L1910,,,,,MIC,,32 µg/mL
CCOC(=O)c1cc(CNc2ccc(F)cc2F)on1,H37Rv,,,resazurin,,MIC,,10.9 µM
CCCCCCC/C=C\CCCCCCCC(=O)NN,1896-HF INHr,,,resazurin,,MIC100,,50 µg/mL
Cc1ccn2nc(C)c(C(=O)NCc3ccc(-c4ccc(OC(F)(F)F)cc4)nc3)c2c1,INH-R1,katG mutant isoniazid resistant,,resazurin,,MIC,,0.079 µg/mL
CC(C(=O)O)c1ccc(O)c2ncccc12,M 607,,,,,MIC50,,10 µg/mL
CCN(CCO)Cc1c(-c2ccccc2)oc(-c2ccccc2)c1Cl,H37Rv,,,BACTEC,,MIC bound,,≤12.5 µg/mL
Cc1onc(-c2c(F)cccc2F)c1C(=O)N1CCN(c2cc3c(cc2F)c(=O)c(C(=O)O)c2n3CS2)CC1,H37Rv,,,agar,,MIC,,11.23 µM
[Cl][Fe][Cl].c1cnc2c(c1)ccc1cccnc12,H37Rv,,,BACTEC,,MIC bound,,≤12.5 µg/mL
CCOC(=O)c1ccc2cccnc2c1O,H37Rv,,,,,MIC50,,1 µg/mL
CCOC(=O)/C(N=Nc1ccc(-c2n[nH]c(=O)n2-c2ccccc2)cc1)=C(\C)O,H37Rv,,,,,MIC,,>12.5 µg/mL
C=C(NC[C@H]1CN(c2ccc(N3C4CCC3CSC4)c(F)c2)C(=O)O1)C1CCC1,H37Rv,,,broth dilution / fluorescence,,MIC,,0.7 µg/mL
CO[C@H]1/C=C/O[C@@]2(C)Oc3c(C)c(O)c4c(O)c(c(/C=N/N5CCN(C)CC5)c(O)c4c3C2=O)NC(=O)/C(C)=C\C=C\[C@H](C)[C@H](O)[C@@H](C)[C@@H](O)[C@@H](C)[C@H](OC(C)=O)[C@@H]1C,H37Rv,,,resazurin,,MIC90,,0.09 µM
CCOC(=O)c1cc(-c2cccc(C)c2)on1,H37Rv,,,low oxygen,,MIC,,25.1 µM
CN1N=CSC12C(=O)N(c1ccc(Cl)cc1)C(=O)N2c1ccc(Cl)cc1,H37Rv,,,BACTEC,,MIC bound,,>12.8 µg/mL
O=C(O)c1c2n(c3cc(N4CCC5(CC4)OCCO5)c(F)cc3c1=O)CS2,H37Rv,,,agar,,MIC,,0.99 µM
CCC1CN(c2c(F)cc3c(=O)c(C(=O)O)cn(C4CC4)c3c2OC)CCN1,TN3033 (D94N),,,,,MIC,,0.7 µg/mL
CCc1ccc(O)c2ncccc12,M 607,,,,,MIC50,,5 µg/mL
NC(=O)NC(=O)c1nccnc1C(=O)O,H37Rv,,,BACTEC,,MIC,,≥12.5 µg/mL
Cc1noc(-c2nc(C)c3c(c2N)C(=O)N(Cc2cccc(Cl)c2)C3=O)n1,H37Rv-MA,Ala317Thr,,resazurin / visual reading,,MIC90,,>10 µM
O=C(Cc1nn(Cc2ccc(Br)cc2F)c(=O)c2ccccc12)N/N=C/c1c(Cl)cccc1Cl,Multidrug-resistant (MDR),,,,,MIC,,2.92 µM
O=C(CCC(=O)c1cccs1)NC[C@H]1CN(c2ccc(N3CCCC3)c(F)c2)C(=O)O1,10 clinical isolates resistant,,,,,MIC,,2–8 µg/mL
O=C(Cc1nn(Cc2ccc(Br)cc2F)c(=O)c2ccccc12)NN=C(c1ccccc1)c1ccccc1,Multidrug-resistant (MDR),,,,,MIC,,0.72 µM
CCOC(=O)c1cc(CNc2cccc(C#N)c2)on1,H37Rv,,,resazurin,,MIC,,57.9 µM
CC(C)(C)NC(=O)C1c2ccccc2CCN1c1cc2c(cc1F)c(=O)c(C(=O)O)c1n2CS1,H37Rv,,,agar,,MIC,,3.24 µM
NC1=NC(Cn2nc(-c3ccccc3)c3ccccc3c2=O)=NNC(=O)N1,H37Rv,,,BACTEC,,inhibition,12.5 µg/mL,0%
CCOC(=O)c1nc(C)c2c(c1N)C(=O)N(Cc1ccccc1)C2O,H37Rv-MA,,,resazurin / visual reading,,MIC90,,>10 µM
CN(C)c1ccc(/C=N/NC(=O)Cc2nn(Cc3ccc(Br)cc3F)c(=O)c3ccccc23)cc1,Multidrug-resistant (MDR),,,,,MIC,,6.16 µM
CCCCCCCCCCCCCCCCC(=O)NNC(=O)c1ccncc1,ATCC 35822 INHr,,,resazurin,,MIC100,,3.12 µg/mL
CCC1CN(c2cc3c(cc2F)c(=O)c(C(=O)O)cn3C2CC2)CCN1,TN1625 (A90V),,,,,MIC,,3 µg/mL
COC1CC(O[C@H]2CC[C@@]3(C)[C@H](CC[C@@]45CC[C@H](C6=CC(=O)OC6)[C@@](C)(CC[C@@H]43)C5=O)C2)OC(C)C1O,H37Rv,,,BACTEC,,MIC bound,,>12.5 µg/mL
O=c1cc(-c2ccccc2)c2cc(Cl)ccc2o1,H37Rv,,,resazurin,,MIC90,,>100 µg/mL
CN(C)c1ccc2c(c1)c1cc(N(C)C)ccc1n2Cc1ccccc1,H37Rv,,,BACTEC,,inhibition,12.5 µg/mL,-9%
NC(=O)c1cnccn1,,Pyrazinamide-resistant,,resazurin,pH 6.0,MIC90,,>100 µM
C=CCn1c(-c2ccc(N=Nc3c(C)[nH]n(CCO)c3=O)cc2)n[nH]c1=S,H37Rv,,,,,MIC,,>12.5 µg/mL
O=C(c1ccccc1)c1cnc2nc(-c3ccccc3)c(-c3ccccc3)nn12,H37Rv,,,BACTEC,,inhibition,12.5 µg/mL,0%
O=C(O)c1c2n(c3cc(N4CCC(n5c(=O)[nH]c6cc(Cl)ccc65)CC4)c(F)cc3c1=O)CS2,H37Rv,,,agar,,MIC,,1.56 µM
Cc1ccc(C(=S)Nc2ccc(Br)cc2)cc1,H37Rv,,,,,MIC,,125 µM
Cc1cnc2c(O)cccc2c1,H37Rv,,,,,MIC50,,0.5–1 µg/mL
CC(C)(C)c1ccc(C(=O)CCC(=O)NC[C@H]2CN(c3ccc(-n4cncn4)c(F)c3)C(=O)O2)cc1,10 clinical isolates resistant,,,,,MIC,,2–4 µg/mL
CCOC(=O)c1cc(CNc2cccc(OC(F)(F)F)c2)on1,H37Rv,,,low oxygen,,MIC,,33.3 µM
CCN(CC)CCNc1ccc2ncn3c4ccc(O)cc4c(=O)c1c23.Cl,H37Rv,,,BACTEC,,inhibition,12.5 µg/mL,99%
CCOC(=O)c1cc(CNc2ccccc2CC)on1,H37Rv,,,low oxygen,,MIC,,31 µM
CCOC(=O)/C(N=Nc1ccc(-c2n[nH]c(=S)n2CC)cc1)=C(\C)O,H37Rv,,,,,inhibition,12.5 µg/mL,0%
COc1ccc(CC2C3=C(CCCC3)CCN2c2cc3c(cc2[N+](=O)[O-])c(=O)c(C(=O)O)c2n3CS2)cc1,H37Rv,,,agar,,MIC,,5.87 µM
C/C(=N\NC(=O)c1ccncc1)c1cccc(F)c1,6 PI,,,,,MIC,,>20 µg/mL
O=Cc1ccc2cccnc2c1O,H37Rv,,,,,MIC50,,>10 µg/mL
CCn1c(=O)c2ncnnc2n(CC)c1=O,H37Rv,,,BACTEC,,MIC bound,,>12.5 µg/mL
CO[C@H]1/C=C/O[C@@]2(C)Oc3c(C)c(O)c4c(O)c(c(/C=N/N5CCN(C)CC5)c(O)c4c3C2=O)NC(=O)/C(C)=C\C=C\[C@H](C)[C@H](O)[C@@H](C)[C@@H](O)[C@@H](C)[C@H](OC(C)=O)[C@@H]1C,Multidrug-resistant (MDR),,,,,MIC,,3.79 µM
CC(C)=NNC1=NC(C)(C)P(=O)(NNc2ncccn2)S1,H37Rv,,,BACTEC,,inhibition,12.5 µg/mL,2%
CO/C(=N\N=C\c1ccccc1F)c1ccncc1,6 PI,,,,,MIC,,>20 µg/mL
COc1cc(C(=O)Nc2ccc(N(C)C)cc2)cc(OC)c1OC,H37Rv,,,resazurin,,MIC bound,,>6.25 µg/mL
COc1ccc(C(=S)Nc2ccccc2)cc1,H37Rv,,,,,MIC,,61.9 µM
CCN(CC)CCNC(=O)c1nn(C)c(=S)[nH]c1=O,H37Rv,,,BACTEC,,MIC bound,,>12.5 µg/mL
O=C(O)c1c2n(c3cc(N4CCN(C(=O)C5COc6ccccc6O5)CC4)c([N+](=O)[O-])cc3c1=O)CS2,H37Rv,,,agar,,MIC,,5.97 µM
Clc1ccc(/C(=C\c2ccccc2)Cn2ccnc2)cc1,H37Rv,,,resazurin,,inhibition,6.25 µg/mL,99%
Cc1ccc(C(=S)Nc2ccc(Cl)c(Cl)c2)cc1,H37Rv,,,,,MIC,,15 µM
O=C(N=C1N(c2ccccc2)C(=O)C(=O)N1c1ccccc1)c1ccccc1,H37Rv,,,BACTEC,,inhibition,12.5 µg/mL,79%
C[C@@H]1CN(c2c(F)c(N)c3c(=O)c(C(=O)O)cn(C4CC4)c3c2F)C[C@H](C)N1,25 strains,,,,,MIC90,,0.2 µg/mL

7 of the rows above, restated:

structure | strain | changes | cells | method | conditions | measure | dose | result
CCc1ccc(O)c2ncccc12 | M 607 |  |  |  |  | MIC50 |  | 5 µg/mL
O=C(O)c1c2n(c3cc(N4CCC5(CC4)OCCO5)c(F)cc3c1=O)CS2 | H37Rv |  |  | agar |  | MIC |  | 0.99 µM
C/C(=N\NC(=O)c1ccncc1)c1cccc(F)c1 | 6 PI |  |  |  |  | MIC |  | >20 µg/mL
CO/C(=N\N=C\c1ccccc1F)c1ccncc1 | 6 PI |  |  |  |  | MIC |  | >20 µg/mL
CN1N=CSC12C(=O)N(c1ccc(Cl)cc1)C(=O)N2c1ccc(Cl)cc1 | H37Rv |  |  | BACTEC |  | MIC bound |  | >12.8 µg/mL
O=C(OCCOC(=O)c1cnccn1)c1cnccn1 |  | Pyrazinamide-resistant |  | resazurin | pH 6.6 | MIC90 |  | >365 µM
CCOC(=O)/C(N=Nc1ccc(-c2n[nH]c(=S)n2CC)cc1)=C(\C)O | H37Rv |  |  |  |  | inhibition | 12.5 µg/mL | 0%